Laboratory results: US11110104B2, “Glutamine antagonists for the treatment of cognitive deficits and psychiatric disorders” (THE JOHNS HOPKINS UNIVERSITY, priority 2015, dated 2021)

Test system: EcoHIV-infected mice
Test: Radial arm water maze, DON prophylaxis in EcoHIV-infected mice
Conditions: DON 1 mg/kg, i.p., q.o.d.

[N-]=[N+]=CC(=O)CC[C@H](N)C(=O)O [DON, 6-diazo-5-oxo-L-norleucine]
overt signs of toxicity (diarrhea, weight loss): no mice exhibited overt signs of toxicity
